Results published in patent US7094760B2, “Peptides for treatment of inflammation and shock” (Salpep Biotechnology, Inc., priority 1996, dated 2006).

Tested on: LPS (Salmonella typhosa)-induced hypotension in sialadenectomized rats
Experiment: endotoxin (LPS)-induced hypotension, sialadenectomized rats
Assay type: in vivo, rat
Conditions: peptide 100 μg/kg 90 min before LPS
Procedure: The animal model of endotoxic shock used involves intravenous injection of endotoxin (3.5 mg/kg of lipopolysaccharide (LPS) from Salmonella typhosa) into pentobarbital-anaesthetized Sprague-Dawley rats, to produce a fall in mean arterial blood pressure within 3 to 5 minutes. The endotoxin was injected slowly over 1 min. via the jugular vein, and mean arterial blood pressure in mm mercury (MABP) was monitored continuously for 60 min, with the average blood pressure being calculated at 15, 30, 45 and 60 min. Studies were performed on unoperated rats and rats with their submandibular glands removed (sialadenectomized).
The results shown in Table 1 are the averages of three different experiments using the protocol defined above. The data shown represent the average decrease in MABP (dec MABP) and the % Decrease in MABP over the 60 minutes following LPS administration. SGP-S (100μg/kg) and SGP-T (100 μg/kg) were administered 90 min. before LPS. […] Neither SGP-T nor SGP-S, when given prior to the LPS challenge, had appreciable effects on MABP.
The dose-response relationship of the inhibitory effect of SGP-T and SGP-S on endotoxin-induced hypotension was also examined and the results are shown in FIG. 1.

Substance: H-SGEGVR-OH [SGP-S, submandibular gland peptide S, SGEGVR]
- MABPbef = mean arterial blood pressure before LPS: 119.7 ± 1.8 mm Hg

Substance: H-TDIFEGG-OH [SGP-T, submandibular gland peptide T, TDIFEGG]
- MABPbef = mean arterial blood pressure before LPS: 123.3 ± 4.9 mm Hg
